Assay results published in PubChem BioAssay AID585 (National Center for Advancing Translational Sciences (NCATS), 2007).
The entries are a selection whose mix differs from that of the whole data set. Activity calls are given as the source filed them. Calls come from the whole dose curve.

The chains behind the UniProt entries cited, without tags or fusion partners.
UniProt P00811, whole entry: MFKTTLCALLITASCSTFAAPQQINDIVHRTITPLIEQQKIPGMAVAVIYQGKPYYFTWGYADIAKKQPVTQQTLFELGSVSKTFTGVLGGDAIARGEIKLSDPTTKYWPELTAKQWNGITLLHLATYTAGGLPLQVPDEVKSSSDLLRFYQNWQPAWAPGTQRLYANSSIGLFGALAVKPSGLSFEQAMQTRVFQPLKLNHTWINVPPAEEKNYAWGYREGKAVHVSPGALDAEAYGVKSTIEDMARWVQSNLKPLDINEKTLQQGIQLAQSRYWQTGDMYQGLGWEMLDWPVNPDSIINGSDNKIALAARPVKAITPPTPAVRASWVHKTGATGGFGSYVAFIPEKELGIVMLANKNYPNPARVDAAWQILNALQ

target: Beta-lactamase (Escherichia coli (strain K12)) (UniProt P00811); assay: Promiscuous and Specific Inhibitors of AmpC Beta-Lactamase (assay without detergent); settings: AmpC nitrocefin hydrolysis, absorbance 480 nm, no detergent; at 28.7 µM (top of the series); note: % of control where 0% means no effect
Description: NIH Molecular Libraries Screening Centers Network [MLSCN]
NIH Chemical Genomics Center [NCGC]
PI Name: Shoichet, Brian K.
This aggregation profiling approach exploits the sensitivity of aggregate formation to detergent. Inhibition of b-lactamase is measured in the presence and absence of 0.01% Triton X-100. See Pubchem assay "Promiscuous and Specific Inhibitors of AmpC Beta-Lactamase (assay with detergent)" for related screen. Compounds that inhibit only in the absence of detergent are considered likely promiscuous aggregators.
A screen of 1,030 compounds was performed in Brian Shoichet's lab in 96-well format. AmpC activity was measured by following the absorbance at 480 nm. Nitrocefin is a chromogenic substrate: while nitrocefin is yellow (lmax 390 nm), the product of its hydrolysis is red (lmax 486 nm, 17,000 M-1). AmpC beta lactamase was provided by Brian Shoichet and Brian Feng, UCSF.
NCGC Assay Protocol Summary:
20 mM phosphate buffer, pH 7.0
Triton X-100: No Detergent screen: 0.0001%, Detergent screen: 0.01%.
Buffer in columns 3 and 4 as negative control (no enzyme).
5.3 nM AmpC in columns 1, 2, 5-48. […]
Six uL of reagents were dispensed to 1536-well Greiner black clear bottom plates. […] The plates were immediately transferred to and read every 20 seconds for 4 min on ViewLux (Perkin-Elmer) High-throughput CCD imager using 480 nm absorbance protocol. […]

Row | Structure (SMILES) | activity change, negative = inhibition
1 | c1nnnn1CCn1cnnn1 | inactive: -1.4%
2 | CN(C(=O)Cc1ccc(Cl)c(Cl)c1)[C@H]1CCCC[C@@H]1N1CCCC1 | inactive: 11.8%
